The test system of this data set is CD3+ CD4+ T cells in peripheral blood mononuclear cells (PBMC).

On to tetanus toxoid [TT, reference compound], for which the “number of responding individuals as compared to buffer only” value was 49.

Source of the values: patent US10329331B2, “Polypeptides” (priority 2010, dated 2019).
